Measurements from patent US12329160B2, “Activated ferrate compositions” (THE TEXAS A & M UNIVERSITY SYSTEM, priority 2018, dated 2025).

Assays:
[1] = Oxidation of individual organic contaminants by Fe^VI with or without S2O3^2− in buffered ultrapure water, HPLC; assay type: physicochemical; conditions: for oxidation by Fe^VI—S2O3^2− with versus without oxygen (FIG. 7): air or nitrogen, contaminant 1.0 μM; for removal by Fe^VI—S2O3^2− (FIG. 3): individual contaminant 1.0 μM
Experimental: To test liquid ferrate solutions using second approach, batch experiments were conducted in a series of 100 mL glass jars under constant stirring rate (400 rpm) with a magnetic stirrer. Oxidation of each micropollutant or their mixtures by Fe^VI with or without S2O3^2− was initiated by mixing equal solution volumes of 10 mL, and the final reaction solutions were kept at 8.00±0.04.
The stock solutions of these contaminants (10.0 μM) were prepared in 10.0 mM Na2HPO4, and diluted using the same buffer solution before the removal experiments. […] Solutions of Fe^VI were prepared by adding K2FeO4 powders to 5.0 mM Na2HPO4/1.0 mM Na2B4O7.10H2O buffer solution. The concentrations of Fe^VI were quantitatively measured using an UV-visible spectrometer at a wavelength of 510 nm with a molar absorption coefficient of ε510 nm=1150 M^−1 cm^−1: The pH value of the contaminant solutions was adjusted to 7.50 via the addition of diluted H3PO4 before mixing with Fe^VI solution to achieve the desired reaction pH at 8.00±0.04. Methanol and phosphoric acid (85%) of high performance liquid chromatography (HPLC) grade were used in testing. 5,5-dimethyl-1-pyrroline-N-oxide (DMPO) was used as the spin trap reagent for identifying the possible reactive inorganic radicals (e.g., .OH and/or SO4.^−) in the oxidation system. All the other chemicals (e.g., hydroxylamine and permanganate) were provided from commercial sources and used without further purification. Two kinds of natural water samples were individually obtained from Brazos River (N 30°42′33″, E 96°28′5″, College Station, Texas) and Lake Bryan (N 30°33′30″, E 96°25′25″, Bryan, Texas). […] These real water samples were filtered through 0.45 μm hydrophilic PVDF membrane to remove the insoluble particles before spiking the contaminant mixtures (1.0 μM for each compound). 20.0 mM borate buffer was used to stabilize the solution pH of the real waters at 8.00±0.04. All the other solutions were prepared using the ultrapure water (resistivity >18 MΩ cm^−1).
Experiments were conducted in a series of 100 mL glass jars under constant stirring rate (400 rpm) with a magnetic stirrer. Oxidation of each contaminant or their mixtures by Fe^VI with or without S2O3^2− was initiated by mixing equal solution volumes of 10 mL, and the final reaction solutions were kept at 8.00±0.04. The concentration of Fe^VI was maintained at 100.0 μM, and the ratios of [S2O3^2−]:[Fe^VI] in the system were varied from 0 to 5.0 for aqueous removal of TMP (5.0 μM). […] After 30 seconds of oxidation, 20.0 μL NH2OH solution (1 M) was added to quench the reactions. Samples were transferred into high performance liquid chromatography (HPLC) vials, and were subsequently analyzed using the HPLC method. Similar experiments using TMP as a target contaminant were also performed by replacing Fe^VI with Mn^VII or chlorine under the same conditions.

[2] = not given; remark: listed apart in the source
[3] = Fe^VI 100.0 μM, S2O3^2− 12.5 μM, pH 8.00, 30 s
[4] = air saturated, same concentrations as Fe^VI experiments, 30 seconds

Row | Molecule | oxidation by Fe^VI—S2O3^2− with versus without oxygen (FIG. 7) [1, 3] | removal by Fe^VI—S2O3^2− (FIG. 3) [1, 3] | further results
1 | Aspartame [APT] | no obvious difference |  | 
2 | NC(=O)N1c2ccccc2C=Cc2ccccc21 [CMZ, Carbamazepine] |  | Almost complete removal | 
3 | CCN1CCN(c2cc3c(cc2F)c(=O)c(C(=O)O)cn3C2CC2)CC1 [ENR, Enrofloxacin] | no obvious difference | Almost complete removal | 
4 | COc1cc(NS(=O)(=O)c2ccc(N)cc2)nc(OC)n1 [SMX, Sulfadimethoxine] |  | Almost complete removal | 
5 | CC(C)NCC(O)COc1ccc(CC(N)=O)cc1 (stereo not shown) [ATL, Atenolol] | no obvious difference |  | 
6 | COc1cc(Cc2cnc(N)nc2N)cc(OC)c1OC [TMP, Trimethoprim] |  | Almost complete removal | oxidation of TMP by Fe^VI—S2O3^2− in the presence of DMSO (FIG. 9) ([1]; 1 mM DMSO, TMP 5.0 μM, Fe^VI 100.0 μM, S2O3^2− 12.5 μM, pH 8.00, 30 s): almost inhibited; oxidation of TMP by Fe^VI—S2O3^2− without oxygen versus with oxygen ([1]; N2 purging, TMP 5.0 μM, ratios 0-5.0, pH 8.0, 30 seconds): did not show any significant difference; oxidation of TMP by S2O3^2− only ([1]; only S2O3^2− (12.5 μM) added, no Fe^VI): no oxidation; effect of S2O3^2− addition on oxidation of TMP by Mn^VII [4]: no enhancement; oxidation of TMP by Mn^VII—S2O3^2− (molar ratio 5.0, 30 seconds): No oxidation; effect of S2O3^2− addition on oxidation of TMP by chlorine [2, 4]: no enhancement; oxidation of TMP by chlorine-S2O3^2− ([2]; molar ratio 5.0, 30 seconds): No oxidation
7 | O=C(O)Cc1ccccc1Nc1c(Cl)cccc1Cl [DCF, Diclofenac] | no obvious difference | Almost complete removal | 
